The results in this text go back to patent publication EP4821928A1, “BICYCLIC HETEROCYCLIC COMPOUND AND FUNGICIDE FOR AGRICULTURAL AND HORTICULTURAL USE CONTAINING SAME AS ACTIVE INGREDIENT” (dated 2026).

The test system of one assay is Magnaporthe grisea. Nature of the assay: Rice blast disease pot test (Test Example A). As to conditions: 250 ppm sprayed, 2.5 ml/pot; rice variety Sachikaze; degree of disease development 6 to 8 days after inoculation.
Another assay relates to Botrytis cinerea. Nature of the assay: Tomato gray mold pot test (Test Example B). As to conditions: 250 ppm sprayed, 2.5 ml/pot; tomato variety Oogata Fukuju; degree of disease development 2 to 3 days after inoculation.
Assay [1] deals with Gray mold fungus (Botrytis cinerea). Nature of the assay: Gray mold anti-germ test (Test Example C). As to conditions: 50 ppm/well; Czapek-dox broth; 25°C for 3 days; absorbance 600 nm.
Assay [2] has as its system Fusarium blight fungus (Fusarium graminearum). Briefly: Fusarium blight anti-germ test (Test Example D). As to conditions: 50 ppm/well; Czapek-dox broth; 25°C for 3 days; absorbance 600 nm.
The test system of assay [3] is Anthracnose fungus (Glomerella cingulata). Nature of the assay: Anthracnose anti-germ test (Test Example E). As to conditions: 50 ppm/well; Czapek-dox broth; 25°C for 3 days; absorbance 600 nm.
For assay [4], the system named is Speckled leaf blotch fungus (Septoria tritici). Nature of the assay: Speckled leaf blotch anti-germ test (Test Example F). The settings on record: 50 ppm/well; Czapek-dox broth; 25°C for 3 days; absorbance 600 nm.

Regarding `Cc1ccc2c(C3=NC(C)(C)Oc4c(Br)cccc43)cnn2c1C`, in the assay with Magnaporthe grisea, the “Rice blast disease pot test (control value)” value (shortened to “Rice blast disease pot test”) is reported as “H (H represents a control value or rate of inhibition of larger than 50%)”. For the same compound, the “Tomato gray mold pot test (control value)” value (“Tomato gray mold pot test” below) in the assay with Botrytis cinerea was “H (H represents a control value or rate of inhibition of larger than 50%)”. For the same compound, the “Gray mold anti-germ test (rate of inhibition)” value in assay [1] is “H (H represents a control value or rate of inhibition of larger than 50%)”. The “Fusarium blight anti-germ test (rate of inhibition)” value in assay [2] is “H (H represents a control value or rate of inhibition of larger than 50%)”. Also, the “Anthracnose anti-germ test (rate of inhibition)” value in assay [3] was “H (H represents a control value or rate of inhibition of larger than 50%)”. The “Speckled leaf blotch anti-germ test (rate of inhibition)” value in assay [4] was “L (L represents a control value or rate of inhibition of 50% or less)”.

Regarding `Cc1cc(C)c2c(c1)C(n1cnc3c(C)c(C)ccc31)=NC(C)(C)O2`, the “Rice blast disease pot test” value in the assay with Magnaporthe grisea is recorded as “H (H represents a control value or rate of inhibition of larger than 50%)”. Besides, in the assay with Botrytis cinerea, the “Tomato gray mold pot test” value is listed as “H (H represents a control value or rate of inhibition of larger than 50%)”. Also, the “Gray mold anti-germ test (rate of inhibition)” value in assay [1] is “H (H represents a control value or rate of inhibition of larger than 50%)”. Moreover, the “Fusarium blight anti-germ test (rate of inhibition)” value in assay [2] is “H (H represents a control value or rate of inhibition of larger than 50%)”. The “Anthracnose anti-germ test (rate of inhibition)” value in assay [3] was “H (H represents a control value or rate of inhibition of larger than 50%)”. Moreover, in assay [4], the “Speckled leaf blotch anti-germ test (rate of inhibition)” value is “H (H represents a control value or rate of inhibition of larger than 50%)”.

As to `CC(=O)C1(C)N=C(n2cnc3c(Cl)cccc32)c2cccc(C)c2O1` (stereo not drawn), the “Rice blast disease pot test” value in the assay with Magnaporthe grisea was “H (H represents a control value or rate of inhibition of larger than 50%)”. For the same compound, the “Tomato gray mold pot test” value with Botrytis cinerea is recorded as “H (H represents a control value or rate of inhibition of larger than 50%)”. The “Gray mold anti-germ test (rate of inhibition)” value in assay [1] is “H (H represents a control value or rate of inhibition of larger than 50%)”. The “Fusarium blight anti-germ test (rate of inhibition)” value in assay [2] is listed as “L (L represents a control value or rate of inhibition of 50% or less)”. The “Anthracnose anti-germ test (rate of inhibition)” value in assay [3] was “H (H represents a control value or rate of inhibition of larger than 50%)”. Besides, in assay [4], the “Speckled leaf blotch anti-germ test (rate of inhibition)” value is recorded as “L (L represents a control value or rate of inhibition of 50% or less)”.

On to `CCC1(C)N=C(n2cnc3c(C)cccc32)c2cccc(C)c2O1` (stereo not drawn), for which the “Rice blast disease pot test” value in the assay with Magnaporthe grisea is recorded as “H (H represents a control value or rate of inhibition of larger than 50%)”. Further, the “Tomato gray mold pot test” value in the assay on Botrytis cinerea is “H (H represents a control value or rate of inhibition of larger than 50%)”. For the same compound, the “Gray mold anti-germ test (rate of inhibition)” value in assay [1] is “H (H represents a control value or rate of inhibition of larger than 50%)”. In assay [2], the “Fusarium blight anti-germ test (rate of inhibition)” value is reported as “L (L represents a control value or rate of inhibition of 50% or less)”. Moreover, the “Anthracnose anti-germ test (rate of inhibition)” value in assay [3] is on record as “H (H represents a control value or rate of inhibition of larger than 50%)”. For the same compound, in assay [4], the “Speckled leaf blotch anti-germ test (rate of inhibition)” value is listed as “H (H represents a control value or rate of inhibition of larger than 50%)”.

For the compound `COc1ccc2c(c1)OC(C)(C)N=C2n1cnc2c(C)c(Cl)ccc21`, the “Rice blast disease pot test” value in the assay with Magnaporthe grisea is recorded as “L (L represents a control value or rate of inhibition of 50% or less)”. Moreover, the “Tomato gray mold pot test” value in the assay on Botrytis cinerea is “H (H represents a control value or rate of inhibition of larger than 50%)”. Besides, in assay [1], the “Gray mold anti-germ test (rate of inhibition)” value is “H (H represents a control value or rate of inhibition of larger than 50%)”. Also, the “Fusarium blight anti-germ test (rate of inhibition)” value in assay [2] is reported as “H (H represents a control value or rate of inhibition of larger than 50%)”. In assay [3], the “Anthracnose anti-germ test (rate of inhibition)” value was “H (H represents a control value or rate of inhibition of larger than 50%)”. Moreover, the “Speckled leaf blotch anti-germ test (rate of inhibition)” value in assay [4] is reported as “L (L represents a control value or rate of inhibition of 50% or less)”.

For `CC1(C)N=C(n2cnc3ccccc32)c2ccccc2O1`, the “Rice blast disease pot test” value in the assay on Magnaporthe grisea was “H (H represents a control value or rate of inhibition of larger than 50%)”. The “Tomato gray mold pot test” value with Botrytis cinerea is “H (H represents a control value or rate of inhibition of larger than 50%)”. For the same compound, the “Gray mold anti-germ test (rate of inhibition)” value in assay [1] is reported as “L (L represents a control value or rate of inhibition of 50% or less)”. Moreover, the “Fusarium blight anti-germ test (rate of inhibition)” value in assay [2] is “L (L represents a control value or rate of inhibition of 50% or less)”. For the same compound, the “Anthracnose anti-germ test (rate of inhibition)” value in assay [3] was “H (H represents a control value or rate of inhibition of larger than 50%)”. Further, the “Speckled leaf blotch anti-germ test (rate of inhibition)” value in assay [4] is “L (L represents a control value or rate of inhibition of 50% or less)”.

For the compound `COc1cccc2c1ncn2C1=NC(C)(C)Oc2c(C)cccc21`, the “Rice blast disease pot test” value in the assay on Magnaporthe grisea is recorded as “H (H represents a control value or rate of inhibition of larger than 50%)”. Also, the “Tomato gray mold pot test” value in the assay on Botrytis cinerea is listed as “H (H represents a control value or rate of inhibition of larger than 50%)”. The “Gray mold anti-germ test (rate of inhibition)” value in assay [1] is reported as “H (H represents a control value or rate of inhibition of larger than 50%)”. The “Fusarium blight anti-germ test (rate of inhibition)” value in assay [2] is “L (L represents a control value or rate of inhibition of 50% or less)”. For the same compound, the “Anthracnose anti-germ test (rate of inhibition)” value in assay [3] is recorded as “H (H represents a control value or rate of inhibition of larger than 50%)”. Also, in assay [4], the “Speckled leaf blotch anti-germ test (rate of inhibition)” value is recorded as “L (L represents a control value or rate of inhibition of 50% or less)”.

Regarding `COCC1(C)N=C(c2cnn3c(C)c(C)ccc23)c2ccc(C)cc2O1` (stereo not drawn), the “Rice blast disease pot test” value in the assay on Magnaporthe grisea is on record as “H (H represents a control value or rate of inhibition of larger than 50%)”. The “Tomato gray mold pot test” value in the assay on Botrytis cinerea is given as “H (H represents a control value or rate of inhibition of larger than 50%)”. Also, the “Gray mold anti-germ test (rate of inhibition)” value in assay [1] is recorded as “H (H represents a control value or rate of inhibition of larger than 50%)”. Moreover, the “Fusarium blight anti-germ test (rate of inhibition)” value in assay [2] is on record as “H (H represents a control value or rate of inhibition of larger than 50%)”. In addition, in assay [3], the “Anthracnose anti-germ test (rate of inhibition)” value is “H (H represents a control value or rate of inhibition of larger than 50%)”. In addition, the “Speckled leaf blotch anti-germ test (rate of inhibition)” value in assay [4] is “H (H represents a control value or rate of inhibition of larger than 50%)”.

In the case of `Cc1ccc2c(ncn2C2=NC(C)(C)Oc3cccc(F)c32)c1C`, in the assay with Magnaporthe grisea, the “Rice blast disease pot test” value was “H (H represents a control value or rate of inhibition of larger than 50%)”. In addition, the “Tomato gray mold pot test” value with Botrytis cinerea is listed as “H (H represents a control value or rate of inhibition of larger than 50%)”. Further, in assay [1], the “Gray mold anti-germ test (rate of inhibition)” value is given as “H (H represents a control value or rate of inhibition of larger than 50%)”. In assay [2], the “Fusarium blight anti-germ test (rate of inhibition)” value is “H (H represents a control value or rate of inhibition of larger than 50%)”. For the same compound, in assay [3], the “Anthracnose anti-germ test (rate of inhibition)” value is reported as “H (H represents a control value or rate of inhibition of larger than 50%)”. In assay [4], the “Speckled leaf blotch anti-germ test (rate of inhibition)” value was “L (L represents a control value or rate of inhibition of 50% or less)”.

Turning to `CSCC1(C)N=C(n2cnc3c(C)c(C)ccc32)c2ccc(C)cc2O1` (stereo not drawn), the “Rice blast disease pot test” value in the assay on Magnaporthe grisea is given as “H (H represents a control value or rate of inhibition of larger than 50%)”. The “Tomato gray mold pot test” value with Botrytis cinerea was “H (H represents a control value or rate of inhibition of larger than 50%)”. For the same compound, in assay [1], the “Gray mold anti-germ test (rate of inhibition)” value is “H (H represents a control value or rate of inhibition of larger than 50%)”. The “Fusarium blight anti-germ test (rate of inhibition)” value in assay [2] is on record as “H (H represents a control value or rate of inhibition of larger than 50%)”. Further, in assay [3], the “Anthracnose anti-germ test (rate of inhibition)” value is “H (H represents a control value or rate of inhibition of larger than 50%)”. The “Speckled leaf blotch anti-germ test (rate of inhibition)” value in assay [4] is listed as “H (H represents a control value or rate of inhibition of larger than 50%)”.

As for `Cc1cccc2c1OC(C)(C)N=C2n1cnc2c(C)cccc21`, the “Rice blast disease pot test” value with Magnaporthe grisea is “H (H represents a control value or rate of inhibition of larger than 50%)”. In the assay with Botrytis cinerea, the “Tomato gray mold pot test” value is reported as “H (H represents a control value or rate of inhibition of larger than 50%)”. Besides, in assay [1], the “Gray mold anti-germ test (rate of inhibition)” value was “H (H represents a control value or rate of inhibition of larger than 50%)”. Besides, the “Fusarium blight anti-germ test (rate of inhibition)” value in assay [2] is given as “H (H represents a control value or rate of inhibition of larger than 50%)”. In addition, the “Anthracnose anti-germ test (rate of inhibition)” value in assay [3] is recorded as “H (H represents a control value or rate of inhibition of larger than 50%)”. In assay [4], the “Speckled leaf blotch anti-germ test (rate of inhibition)” value is reported as “H (H represents a control value or rate of inhibition of larger than 50%)”.

Regarding `Cc1cccc2c1ncn2C1=NC(C)(C)Sc2cc(F)ccc21`, in the assay with Magnaporthe grisea, the “Rice blast disease pot test” value is reported as “H (H represents a control value or rate of inhibition of larger than 50%)”. In addition, the “Tomato gray mold pot test” value with Botrytis cinerea is recorded as “H (H represents a control value or rate of inhibition of larger than 50%)”. Besides, the “Gray mold anti-germ test (rate of inhibition)” value in assay [1] is given as “H (H represents a control value or rate of inhibition of larger than 50%)”. In addition, in assay [2], the “Fusarium blight anti-germ test (rate of inhibition)” value is “L (L represents a control value or rate of inhibition of 50% or less)”. In assay [3], the “Anthracnose anti-germ test (rate of inhibition)” value is on record as “H (H represents a control value or rate of inhibition of larger than 50%)”. The “Speckled leaf blotch anti-germ test (rate of inhibition)” value in assay [4] was “L (L represents a control value or rate of inhibition of 50% or less)”.
